Experimental findings from article PMC11502347 (Frontiers in Microbiology, 2024) are described below.

“And” between values parts separate entries of the source, which are not always exact repeats. Equal entries are not always repeated.

The test system of data set [1] is Murine macrophage J774.A1. The class given is cell-based. Conditions: SI = IC50/MIC90 (Mtb H37Rv).
Data set [2] has as its system MRC-5 fibroblasts. The class given is cell-based, human. Conditions: SI = IC50/MIC90 (Mtb H37Rv).

Turning to `CO[C@H]1/C=C/O[C@@]2(C)Oc3c(C)c(O)c4c(O)c(c(/C=N/N5CCN(C)CC5)c(O)c4c3C2=O)NC(=O)/C(C)=C\C=C\[C@H](C)[C@H](O)[C@@H](C)[C@@H](O)[C@@H](C)[C@H](OC(C)=O)[C@@H]1C` [RFP, rifampicin], in data set [1], the “SI J774.A1” value is >2,400. The “SI MRC-5” value in data set [2] is reported as >2,400.

For `O=C(Nc1ccc(N2CCSCC2)c(F)c1)c1ccc2no[n+]([O-])c2c1` [Compound 5b], the “SI J774.A1” value in data set [1] was 57.14 and 57. The “SI MRC-5” value in data set [2] was found to be 81.43.

On to `NNC(=O)c1ccncc1` [INH, isoniazid], for which the “SI J774.A1” value in data set [1] is listed as greater than 750. The “SI MRC-5” value in data set [2] was greater than 750.
